Laboratory results as given in patent publication US20070265201A1, “INHIBITORS OF INFLAMMATORY CYTOKINE TRANSCRIPTION DERIVED FROM HCMV PROTEIN IE2” (priority 2005, published 2007).

System: HeLa-S3 cells
Assay: Localization of GFP-IE2 fragment fusion protein after transfection
Assay type: cell-based
Settings: 24 hours post transfection, HeLa-S3, FIG. 4A

B1: GFP 291-364 (protein)
chain: SSHHGRGGFGGAASSSLLSCGHQSSGGASTGPRKKKSKRISELDNEKVRNIMKDKNTPFCTPNVQTRRGRVKID
modifications: left off: large carriers
subcellular localization of GFP fusion protein: found in both the cytoplasm and nucleus
